Anti-infective test results gathered from many reports (values: NIAID ChemDB through PubChem).

Common to all: target-level tests; species: HIV-1; target: Reverse transcriptase; measure: Ki

Blank or dashed fields: not listed here.

smiles | changes | strain or isolate | read by | value
Nc1ccn([C@H]2CC[C@@H](COP(=O)(O)OP(=O)(O)OP(=O)(O)O)O2)c(=O)n1 |  | LAV | nucleotide incorporation | 0.9 µM
C=Cc1cc(N(C)C)nc(SCc2ccc(OC)cc2)n1 | RT-K103N |  | nucleotide incorporation / radiometric | >400 µM
Cn1c(=O)c2[nH]c(NCCC34CC5CC(CC(C5)C3)C4)nc2n(C)c1=O |  |  | RT activity / radiometric | >200 µM
Nc1ccn([C@@H]2CS[C@H](COP(=O)(O)OP(=O)(O)OP(=O)(O)O)O2)c(=O)n1 |  |  | nucleotide incorporation | 1 µM
Nc1ccn([C@@H]2CS[C@H](COP(=O)(O)OP(=O)(O)OP(=O)(O)O)O2)c(=O)n1 |  |  | nucleotide incorporation | 0.05 µM
Nc1ccn([C@H]2CS[C@@H](COP(=O)(O)OP(=O)(O)OP(=O)(O)O)O2)c(=O)n1 |  |  | nucleotide incorporation | 0.22 µM
O=C(CSc1nc2c(ncn2[C@H]2C[C@H](O)[C@@H](COP(=O)(O)OP(=O)(O)OP(=O)(O)O)O2)c2nccn12)c1ccc(C(F)(F)F)cc1 |  |  | radiometric | 55 µM
Cc1c(Cc2ccccc2)nc(NCCCCN)[nH]c1=O | RT-Y181L |  |  | >1000 µM
Nc1ccn([C@H]2CC[C@@H](COP(=O)(O)OP(=O)(O)OP(=O)(O)O)O2)c(=O)n1 | RT-A62V V75I F77L F116Y Q151M |  | nucleotide incorporation / radiometric | 57 µM
Cc1cc(C)cc(S(=O)(=O)c2c(C(=O)NCC(N)=O)[nH]c3ccc(Cl)c(F)c23)c1 | WT |  | RT activity / nucleotide incorporation | 0.025 µM
NC(=O)c1[nH]c2ccc(Cl)cc2c1S(=O)(=O)c1ccccc1 |  |  | nucleotide incorporation / radiometric | 0.0013 µM
[N-]=[N+]=Nc1ccc(C(=O)CSc2nc3c(ncn3[C@H]3C[C@H](O)[C@@H](COP(=O)(O)OP(=O)(O)OP(=O)(O)O)O3)c3nccn23)cc1 |  |  | radiometric | 15 µM
Cc1cn([C@H]2CC[C@@H](COP(=O)(O)OP(=O)(O)OP(=O)(O)O)O2)c(=O)[nH]c1=O |  | LAV | nucleotide incorporation | 0.03 µM
CCC(CC12CC3CC(CC(C3)C1)C2)Nc1nc2c([nH]1)c(=O)n(C)c(=O)n2C |  |  | RT activity / radiometric | >200 µM
O=c1cc(Cc2ccccc2)nc(NCCCCO)[nH]1 | RT-V106A |  |  | 75 µM
Cc1cc(C)cc(S(=O)(=O)c2c(C(=O)NCCOc3ccccc3)[nH]c3ccc(Cl)c(F)c23)c1 | L100I |  | RT activity / nucleotide incorporation | 0.002 µM
C=Cc1cc(N(C)C)nc(S(C)(=O)=O)n1 | RT-Y181I |  | nucleotide incorporation / radiometric | 39 µM
Nc1ncnc2c1ncn2[C@H]1CC[C@@H](COP(=O)(O)OP(=O)(O)OP(=O)(O)O)O1 |  | LAV | nucleotide incorporation | 13 µM
Cc1cc(C)cc(S(=O)(=O)c2c(C(N)=O)[nH]c3ccc(Cl)cc23)c1 |  | WT | nucleotide incorporation / radiometric | 0.0003 µM
Nc1nc2c(ncn2[C@H]2CC[C@@H](COP(=O)(O)OP(=O)(O)OP(=O)(O)O)O2)c(=O)[nH]1 | RT-Q151M |  | nucleotide incorporation / radiometric | 0.027 µM
Nc1nc2c(ncn2[C@@H]2C[C@H](COP(=O)(O)OP(=O)(O)OP(=O)(O)O)[C@H]2CO)c(=O)[nH]1 |  |  |  | 0.3 µM
Nc1nc2c(ncn2[C@H]2CC[C@@H](COP(=O)(O)OP(=O)(O)OP(=O)(O)O)O2)c(=O)[nH]1 | RT-K65R |  |  | 0.015 µM
O=P(O)(O)OP(=O)(O)O | RT-Q151E |  | nucleotide incorporation / radiometric | 653 µM
CCC(c1nc(N(C)C)[nH]c(=O)c1C)c1c(F)cccc1F | Y181I |  | nucleotide incorporation | >20 µM
[N-]=[N+]=Nc1c(F)c(F)c(C(=O)CSc2nc3c(ncn3[C@H]3C[C@H](O)[C@@H](COP(=O)(O)OP(=O)(O)OP(=O)(O)O)O3)c3nccn23)c(F)c1F |  |  | radiometric | 10 µM
COC(=O)NCCCCNc1nc(Cc2ccccc2)c(C)c(=O)[nH]1 | RT-K103N |  |  | >1000 µM
COc1ccccc1N1CCN(c2nc(Cc3c(F)cccc3F)c(C)c(=O)[nH]2)CC1 | V179D |  | nucleotide incorporation | 8.5 µM

Repeating the final 2 entries:

| smiles | changes | strain or isolate | read by | value |
|---|---|---|---|---|
| COC(=O)NCCCCNc1nc(Cc2ccccc2)c(C)c(=O)[nH]1 | RT-K103N |  |  | >1000 µM |
| COc1ccccc1N1CCN(c2nc(Cc3c(F)cccc3F)c(C)c(=O)[nH]2)CC1 | V179D |  | nucleotide incorporation | 8.5 µM |

Neighbouring rows are from separate reports.